Results on 8 compounds are retold here after article PMC7765388, “Synthesis and In Vitro Antiprotozoan Evaluation of 4-/8-Aminoquinoline-based Lactams and Tetrazoles” (Molecules, 2020).

This data set relates to P. falciparum K1 strain. As to the kind of experiment: In vitro antiplasmodium activity, 3H-hypoxanthine incorporation assay. Type of data set: cell-based, Plasmodium falciparum. The settings on record: for Selectivity Indices (SI) [(IC50 L6 Cell Line)/(IC50 K1 strain)]: L6 vs K1. As for the experimental part: Antiplasmodial activity on the K1 strain, antitrypanosomal activity on T. b. brucei rhodesiense STIB900 and cytotoxicity on the L6 mammalian cell-line were all carried out at the Swiss Tropical and Public Health Institute (STPH), Switzerland as follows:
In vitro activity against erythrocytic stages of P. falciparum was determined using a ^3H-hypoxanthine incorporation assay, using the chloroquine and pyrimethamine-resistant K1 strain that originates from Thailand and the standard drug chloroquine (Sigma C6628). Compounds were dissolved in DMSO at 10 mg/mL and added to parasite cultures incubated in RPMI 1640 medium without hypoxanthine, supplemented with HEPES (5.94 g/L), NaHCO3 (2.1 g/L), neomycin (100 U/mL), Albumax^R (5 g/L) and washed human red cells A^+ at 2.5% hematocrit (0.3% parasitemia). Serial drug dilutions of eleven three-fold dilution steps covering a range from 100 to 0.002 μg/mL were prepared. The 96-well plates were incubated in a humidified atmosphere at 37 °C; 4% CO2, 3% O2, 93% N2. After 48 h, 50 μL of ^3H-hypoxanthine (= 0.5 μCi) was added to each well of the plate. The test compounds were tested in triplicate ad parasite growth compared to control or blank well. The plates were incubated for a further 24 h under the same conditions. The plates were then harvested with a Betaplate™ cell harvester (Wallac, Zurich, Switzerland), and the red blood cells transferred onto a glass fiber filter then washed with distilled water. The dried filters were inserted into a plastic foil with 10 mL of scintillation fluid and counted in a Betaplate™ liquid scintillation counter (Wallac, Zurich, Switzerland). IC50 values were calculated from sigmoidal inhibition curves by linear regression using Microsoft Excel.

Take “1-[2-(7-Chloroquinolin-4-ylamino)ethyl]-3-methoxy-4-(4-methoxyphenyl)azetidin-2-one [Compound 4b]”: the “Selectivity Indices (SI) [(IC50 L6 Cell Line)/(IC50 K1 strain)]” value (shortened to “Selectivity Indices (SI)”) is 33.

As to “1-[2-(7-Chloroquinolin-4-ylamino)ethyl]-3-methoxy-4-p-tolylazetidin-2-one [Compound 4c]”, the “Selectivity Indices (SI)” value was found to be 160. Regarding “1-[2-(7-Chloroquinolin-4-ylamino)ethyl]-4-(4-chlorophenyl)-3-methoxyazetidin-2-one [Compound 4e]”, the “Selectivity Indices (SI)” value is recorded as 38. In addition, where the note is “K1 strain, vs primaquine”, the “fold more active than primaquine (antiplasmodium)” value was 2 fold. Turning to `COC1C(=O)N(CCNc2ccnc3cc(Cl)ccc23)C1c1ccc(Cl)c(Cl)c1` (centres unmarked) [Compound 4d, 1-[2-(7-Chloroquinolin-4-ylamino)ethyl]-4-(3,4-dichlorophenyl)-3-methoxyazetidin-2-one], the “fold more active than primaquine (antiplasmodium)” value (K1 strain, vs primaquine) turned out to be 3 fold. For “N-{5-[(1-tert-butyl-1H-tetrazol-5-yl)(3,4-dichlorophenyl)methylamino]pentan-2-yl}-6-methoxyquinolin-8-amine [Compound 6d]”, the “Selectivity Indices (SI)” value is on record as 67. Under “K1 strain, vs chloroquine”, the “fold less active than chloroquine (antiplasmodium)” value turned out to be 6 fold. In addition, the “fold less active than primaquine (antiplasmodium)” value (K1 strain, vs primaquine) was found to be 2 fold. Consider “N-{5-[(1-tert-butyl-1H-tetrazol-5-yl)(4-chlorophenyl)methylamino]pentan-2-yl}-6-methoxyquinolin-8-amine [Compound 6e]”, for which the “Selectivity Indices (SI)” value is 17.

Take “N-{5-[(1-tert-butyl-1H-tetrazol-5-yl)(p-tolyl)methylamino]pentan-2-yl}-6-methoxyquinolin-8-amine [Compound 6c]”: the “Selectivity Indices (SI)” value was 8. On the same count and under the same terms, the value for “N-{5-[(1-tert-butyl-1H-tetrazol-5-yl)(phenyl)methylamino]pentan-2-yl}-6-methoxyquinolin-8-amine [Compound 6a]” was 4.
